Reference: ChEMBL document CHEMBL5036347, “Design of the naphthyl-diarylpyrimidines as potent non-nucleoside reverse transcriptase inhibitors (NNRTIs) via structure-based extension into the entrance channel” (Eur J Med Chem, 2021)

Assays:
[1] = target: Human immunodeficiency virus type 1 reverse transcriptase (Human immunodeficiency virus 1, UniProt Q72547, K103N/Y181C); test: Inhibition of HIV1 reverse transcriptase K103N/Y181C double mutant using oligo(dT)16 as primer measured after 40 mins by picogreen-dye based spectrofluorimetric analysis
[2] = target: Human immunodeficiency virus type 1 reverse transcriptase (Human immunodeficiency virus 1, UniProt Q72547, Y188L); test: Inhibition of HIV1 reverse transcriptase Y188L mutant using oligo(dT)16 as primer measured after 40 mins by picogreen-dye based spectrofluorimetric analysis
[3] = target: Human immunodeficiency virus type 1 reverse transcriptase (Human immunodeficiency virus 1, UniProt Q72547, Y181C); test: Inhibition of HIV1 reverse transcriptase Y181C mutant using oligo(dT)16 as primer measured after 40 mins by picogreen-dye based spectrofluorimetric analysis
[4] = target: Human immunodeficiency virus type 1 reverse transcriptase (Human immunodeficiency virus 1, UniProt Q72547, F227L/V106A); test: Inhibition of HIV1 reverse transcriptase F227L/V106A double mutant using oligo(dT)16 as primer measured after 40 mins by picogreen-dye based spectrofluorimetric analysis
[5] = target: Human immunodeficiency virus type 1 reverse transcriptase (Human immunodeficiency virus 1, UniProt Q72547, E138K); test: Inhibition of HIV1 reverse transcriptase E138K mutant using oligo(dT)16 as primer measured after 40 mins by picogreen-dye based spectrofluorimetric analysis

Cc1cc(C#N)cc(C)c1Oc1nc(Nc2ccc(C#N)cc2)nc(N)c1Br [ETRAVIRINE]
IC50 [1]: 10 nM
IC50 [2]: 40 nM
IC50 [3]: 20 nM
IC50 [4]: 10 nM
IC50 [5]: 20 nM
